Target: biotinylated monomeric MOW15–22 RBD (MOW15–22 (bat MERSr-CoV sampled in Pipistrellus nathusii))
Assay: BLI
Details: domain or fragment

monomeric P.nat ACE2 ectodomain (residues 17–614, avi-His8)
koff: 0.0129 s⁻¹
